From PubChem BioAssay AID1259311 (ICCB-Longwood Screening Facility, Harvard Medical School, 2017)
The list shows a part of the results, in another mix than the full data. Calls of active or inactive are those of the source. Cut-off read from the data, not from the text of the source: active = inhibition above about 85%; inactive = the rest.

Assay: growth inhibition of S. aureus RN4220, primary screen, OD600 (AID 1259311);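 note: plate controls were untreated cells for no effect and reference antibiotic for full effect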
Conditions: OD600, 16 h, stronger effect = higher value

| Structure (SMILES) | inhibition |
| --- | --- |
| O=P1(Nc2ccc(Br)cn2)COc2ccccc2OC1 | inactive: 10.1% |
